Compound potency records, mixed from different reports. Data source: NIAID ChemDB in PubChem.

All rows: whole-cell or culture tests; organism: Cryptococcus neoformans; read-out: MIC

Blank or dashed fields: not listed here.

SMILES,strain or isolate,setting,value
CCCCCCCCCCSc1cc(=S)ss1,ATCC 32264,,125 µg/mL
CCC(C)CCCCCCC1CC(=O)NCC(=O)N[C@@H](CCCN)C(=O)N[C@@H](C(C)C)C(=O)N1,TIMM0354,,1.25 µg/mL
CCn1nc(-c2cc(C)on2)c(N=O)c1C,,,3.1 µM
C[C@H](n1nnnc1CCN1CCN(C(c2ccccc2)c2ccccc2)CC1)[C@](O)(Cn1cncn1)c1ccc(F)cc1F,LA314,,8 µg/mL
CCCn1c(-c2ccccn2)noc1=S,,,0.22 µg/mL
COc1ccc(N2CCN(CCc3nnn([C@@H](C)[C@](O)(Cn4cncn4)c4ccc(F)cc4F)n3)CC2)cc1,LA314,,>16 µg/mL
CCCCCCCCNC1NCCC2c3ccc(OC)cc3CCN12,NFI3102,,8 µg/mL
CCC(C)n1ncn(-c2ccc(N3CCN(c4ccc(OC[C@H]5CO[C@](Cn6cncn6)(c6ccc(Cl)cc6Cl)O5)cc4)CC3)cc2)c1=O,3,,0.1 µg/mL
O=c1snc(-c2ccccn2)n1-c1ccccc1,,,0.05 µg/mL
C[C@H](n1nnc(CCN2CCN(c3ccccc3Cl)CC2)n1)[C@](O)(Cn1cncn1)c1ccc(F)cc1F,LA314,,8 µg/mL
Cc1nc(C)c(-c2n[nH]c(=S)n2-c2ccc3ccccc3c2)s1,PLM 589,,3.12 µg/mL
Cc1cc(-c2cc(C)n(C)n2)no1,,,>200 µM
C[C@H]1[C@H](O)[C@@H](C)/C=C/C=C/C=C/C=C/C=C/C=C/C=C/[C@H](O[C@@H]2O[C@H](C)[C@@H](O)[C@H](N)[C@@H]2O)C[C@@H]2O[C@](O)(C[C@@H](O)C[C@@H](O)CC[C@H](O)[C@@H](O)C[C@@H](O)CC(=O)O[C@H]1C)C[C@H](O)[C@H]2C(=O)O,5 isolates,,0.31–1.25 µg/mL
CCCCCCCCOc1ccc(C(=O)NC2C[C@@H](O)[C@@H](O)NC(=O)C3[C@@H](O)[C@@H](C)CN3C(=O)C(C(C)O)NC(=O)C([C@H](O)[C@@H](O)c3ccc(O)cc3)NC(=O)C3C[C@@H](O)CN3C(=O)C(C(C)O)NC2=O)cc1,MY1051,,>128 µg/mL
Cc1cc(-c2c(N=O)c(C)nn2CCO)no1,,,0.8 µM
CCC(C)n1ncn(-c2ccc(N3CCN(c4ccc(OC[C@H]5CO[C@](Cn6cncn6)(c6ccc(Cl)cc6Cl)O5)cc4)CC3)cc2)c1=O,DUMC100.91,,0.008 µg/mL
CCCCCOc1ccc(-c2ccc(-c3ccc(C(=O)N[C@H]4C[C@@H](O)[C@@H](O)NC(=O)[C@@H]5[C@@H](O)[C@@H](C)CN5C(=O)[C@H]([C@H](C)O)NC(=O)[C@H]([C@H](O)[C@@H](O)c5ccc(O)cc5)NC(=O)[C@@H]5C[C@@H](O)CN5C(=O)[C@H]([C@H](C)O)NC4=O)cc3)cc2)cc1,1 isolates,,>2 µg/mL
C[C@H](n1nnnc1CCN1CCN(c2cccc(Cl)c2)CC1)[C@](O)(Cn1cncn1)c1ccc(F)cc1F,LA314,,>8 µg/mL
CCC(C)CCCCCCC1CC(=O)NCC(=O)N[C@@H](CCCN)C(=O)N[C@@H](C(C)CC)C(=O)N1,TIMM0354,,1.25 µg/mL
Cc1c(NC(=O)CSC(=S)N2CCCCC2C)c(=O)n(-c2ccccc2)n1C,KUEN 1048,,12.5 µg/mL
CCC(C)CC(C)CCCCCCCCC(=O)NC1C[C@H](O)[C@@H](O)NC(=O)[C@@H]2[C@@H](O)[C@@H](C)CN2C(=O)[C@H]([C@H](O)CC(N)=O)NC(=O)[C@H](C(O)[C@H](O)c2ccc(O)cc2)NC(=O)[C@@H]2C[C@@H](O)CN2C(=O)[C@H]([C@@H](C)O)NC1=O,MY1146,,>128 µg/mL
Clc1ccc(CCC(Cn2ccnc2)Sc2c(Cl)cccc2Cl)cc1,,,≤1 µg/mL
COC(=O)[C@H]1[C@@H]2C[C@@H](O[C@@H]3O[C@H](C)[C@@H](O)[C@H](N)[C@@H]3O)/C=C/C=C/C=C/C=C/C=C/C=C/C=C/[C@H](C)[C@@H](O)[C@H](C)[C@H](C)OC(=O)C[C@H](O)C[C@H](O)[C@@H](O)CC[C@H](O)C[C@H](O)C[C@](O)(C[C@@H]1O)O2,,,0.8 µM
Cc1nc(C)c(C2=NNC(SCc3ccc(C(F)(F)F)cc3)N2C2C3CC4CC(C3)CC2C4)s1,PLM 589,,25 µg/mL
CCCCCCCCCCCCCC(O)CC(O)C(N)CC(=O)CC(C)C(N)C(=O)NC(C=O)CO,,,3.12 µg/mL
CCSc1ssc(=S)c1OC,ATCC 32264,,50 µg/mL
CCCSc1ccc2nc(NC(=O)OC)[nH]c2c1,93-175,48 h,≤0.6 µg/mL
C=C(CCCCCNC1NCCC2c3ccccc3CCN12)C(C)C,NFI3102,,4 µg/mL
C[C@@H](n1cnc2cc(Cl)ccc2c1=O)[C@](O)(Cn1cncn1)c1ccc(F)cc1F,Isolate 109.97,,0.0098 µg/mL
COc1c(O)c2c(=O)cc(OC)c3c4c(OC)cc(=O)c5c(O)c(OC)c6c(c(c1CC(C)(O)C6C(C)=O)c23)c54,,,>100 µg/mL
CCS(=O)(=O)C(F)(F)C(O)(Cn1cncn1)c1ccc(F)cc1F,IFM 46531,,1 µg/mL
Cc1nnsc1-c1n[nH]c(=S)n1C1C2CC3CC(C2)CC1C3,PLM 589,,12.5 µg/mL
COc1ccc(N2CCN(CCc3nnnn3[C@@H](C)[C@](O)(Cn3cncn3)c3ccc(F)cc3F)CC2)cc1,LA314,,>16 µg/mL
C[N+](C)(C)CCOP(=O)([O-])OCCCCCCCCCCCCCCCCCCCCCCOP(=O)([O-])OCC[N+](C)(C)C,,,0.04 µg/mL
C[C@@H]1CCC2(OC1)OC1CC3C4C[C@H](O)[C@H]5C[C@@H](O)CC[C@]5(C)C4CC(=O)[C@]3(C)C1[C@@H]2C,ATCC 90113,,10 µg/mL
Cn1c(-c2ccccn2)noc1=S,,,0.51 µg/mL
CCCCCCCCCCCCC(OC)C(=O)O,ATCC66031,,110 µM
CCSSc1ssc(=S)c1-c1ccccc1,ATCC 32264,,25 µg/mL
Cc1noc(=S)n1-c1ccccc1,,,0.52 µg/mL
CCCSc1cc(=S)ss1,ATCC 32264,,12.5 µg/mL
COc1ccccc1N1CCN(CCc2nnn([C@@H](C)[C@](O)(Cn3cncn3)c3ccc(F)cc3F)n2)CC1,LA314,,>8 µg/mL
CCc1cc(C(C)(C)C)nc2c(NC(C)CCCN)cc(OC)c(Oc3cccc(C(F)(F)F)c3)c12,,,10 µg/mL
CCn1nc(-c2cc(C)on2)cc1C,,,>200 µM
CCn1c2c(c3ccccc31)C(=O)c1ncc(C)cc1C2=O,,,>200 µg/mL
CN1CCC[C@H]1CCCCCCCCCc1ccccc1,IP960-67,,25 µg/mL
CC(C(O)(Cn1cncn1)c1ccc(F)cc1F)S(C)(=O)=O,Isolate 89-98,,40 µg/mL
CCc1ccc(-n2cc(C(=O)OC)c3c2C(=O)C(C)=C(C)C3=O)cc1,KCCM 50564,,60 µg/mL
CCSc1cc(=S)ss1,ATCC 32264,,62.5 µg/mL
Cn1c(-c2ccccc2)nsc1=O,,,0.06 µg/mL
Cc1nnsc1C(=O)NNC(=S)NC12CC3CC(CC(C3)C1)C2,PLM 589,,25 µg/mL
Cc1ccc(-n2c(-c3ccncc3)nsc2=O)cc1,,,0.09 µg/mL
C[C@H](n1nnc(CCN2CCN(Cc3ccccc3)CC2)n1)[C@](O)(Cn1cncn1)c1ccc(F)cc1F,LA314,,>16 µg/mL
CC(C)=CCCCCCNC1NCCC2c3ccccc3CCN12,NFI3102,,4 µg/mL
COc1ccccc1N1CCN(CCc2nnnn2[C@@H](C)[C@](O)(Cn2cncn2)c2ccc(F)cc2F)CC1,LA314,,8 µg/mL
COc1ccc2c(c1)CCN1C(NCCCCCC=C(C)C)NCCC21,NFI3102,,32 µg/mL
S=c1onc(-c2ccccn2)n1-c1ccccc1,,,0.39 µg/mL
CC[C@@]1(O)C[C@H](O[C@H]2C[C@H](N(C)C)[C@H](O[C@H]3C[C@H](O)[C@H](O[C@H]4CCC(=O)[C@H](C)O4)[C@H](C)O3)[C@H](C)O2)c2c(cc3c(c2O)C(=O)c2c(O)cccc2C3=O)[C@H]1C(=O)OC,Serotype C,,0.8 µg/mL
CCCCn1nc(C)c(N=O)c1-c1cc(C)on1,,,2.4 µM

For reference, 4 entries again:

SMILES	strain or isolate	setting	value
CCS(=O)(=O)C(F)(F)C(O)(Cn1cncn1)c1ccc(F)cc1F	IFM 46531		1 µg/mL
Clc1ccc(CCC(Cn2ccnc2)Sc2c(Cl)cccc2Cl)cc1			≤1 µg/mL
CC[C@@]1(O)C[C@H](O[C@H]2C[C@H](N(C)C)[C@H](O[C@H]3C[C@H](O)[C@H](O[C@H]4CCC(=O)[C@H](C)O4)[C@H](C)O3)[C@H](C)O2)c2c(cc3c(c2O)C(=O)c2c(O)cccc2C3=O)[C@H]1C(=O)OC	Serotype C		0.8 µg/mL
C[C@H](n1nnc(CCN2CCN(Cc3ccccc3)CC2)n1)[C@](O)(Cn1cncn1)c1ccc(F)cc1F	LA314		>16 µg/mL

Two numbers with a dash give a range or band. Neighbouring rows are from separate reports.